A mixed list of measured activities; the numbers were collected in NIAID ChemDB.

Common to all: growth or infection tests; agent: Hepatitis B virus; read by: ELISA; measure: EC50

ECn is the concentration giving n% inhibition of infection, replication or growth. Rows are shuffled and stem from different studies. Blank or dashed fields: not listed here.

| smiles | strain | cell line | result |
|---|---|---|---|
| c1ccc(NCc2nnc(Sc3ccccc3)o2)cc1 | - | HepG2 2.2.15 | 72.2 µM |
| CCCc1cc(=O)nc(SC)n1CC1OC(OC)C(O)C1O | - | HepG2 2.2.15 | >100 µM |
| C=C(C)[C@@H]1CC[C@]2(C(=O)OC)CC[C@]3(COC(=O)c4ccccc4)C(CCC4[C@@]5(C)CC[C@H](OC(C)=O)CC5C(C)(C)C[C@]43C)C12 | - | HepG2.2.15 | 10.4 µM |
| COC1OC(CSc2nccc(=O)[nH]2)C(O)C1O | - | HepG2 2.2.15 | <100 µM |
| C=CCn1c(=O)c(-c2cc(COC(C)=O)n(-c3ccccc3)n2)nc2ccccc21 | - | HepG2 2.2.15 | 0.33 µM |
| Fc1ccc(NCc2nc(=S)[nH][nH]2)cc1 | - | HepG2 2.2.15 | 87.9 µM |
| O=C1NC(=O)/C(=C/N2CCN(C(c3ccccc3)c3ccc(Cl)cc3)CC2)S1 | - | HepG2 2.2.15 | 6.66 µM |
| COC1OC(Cn2cc(C)c(=O)nc2SC)C(O)C1O | - | HepG2 2.2.15 | 90 µM |
| CCC[C@H](Nc1nc(-c2ccc(NC(=O)NCC)c(OC)c2)ncc1C)c1cccnc1 | Genotype D | HepG2 2.2.15 | 0.08 µM |
| C=C1[C@H](CO)[C@@H](O)C[C@@H]1n1cnc2c(=O)[nH]c(N)nc21 | Genotype D | HepG2-NTCP | >0.1 µM |
| O=C(O[C@@H]1Cc2c(O)cc(O)cc2O[C@@H]1c1cc(O)c(O)c(O)c1)c1cc(O)c(O)c(O)c1 | - | HepG2.117 | 39.4 µM |
| Cc1ccc(NCc2nnc(SCC(=O)NN=CC(O)C(O)C(O)C(O)CO)n2-c2ccccc2)cc1 | - | HepG2 2.2.15 | 7.7 µM |
| CCOC(=O)c1c(CSc2ccccc2)n(C)c2cc(Br)c(O)c(CN(C)C)c12 | - | HepAD38 | 4.321 µM |
| COC1OC(CSc2nc(C)cc(=O)[nH]2)C(O)C1O | - | HepG2 2.2.15 | >100 µM |
| Cc1ccc(NCc2nnc(Sc3ccccc3)o2)cc1 | - | HepG2 2.2.15 | 3.9 µM |

For reference, 2 entries again:

smiles,strain,cell line,result
Fc1ccc(NCc2nc(=S)[nH][nH]2)cc1,-,HepG2 2.2.15,87.9 µM
CCOC(=O)c1c(CSc2ccccc2)n(C)c2cc(Br)c(O)c(CN(C)C)c12,-,HepAD38,4.321 µM